Results from patent US9308215B2, “Avermectins and milbemycins as anti-mycobacterial agents” (priority 2013, dated 2016).

Test system: Mycobacterium tuberculosis (H37Rv)
Conditions: Acute (SCID)

With `CO[C@H]1C[C@H](O[C@@H]2/C(C)=C/C[C@@H]3C[C@@H](C[C@]4(CC[C@H](C)[C@@H](C5CCCCC5)O4)O3)OC(=O)[C@@H]3C=C(C)/C(=N/O)[C@H]4OC/C(=C\C=C\[C@@H]2C)[C@]43O)O[C@@H](C)[C@@H]1O` [Selamectin] the Toxicity (10 mg/kg bw PO, sesame oil) was “None”, the Toxicity (50 mg/kg bw PO, sesame oil) was “None” and the Toxicity (100 mg/kg bw PO, sesame oil) was “Low”. The Toxicity (200 mg/kg bw PO, sesame oil) was “Low/moderate”.
For `CO[C@H]1/C=C/O[C@@]2(C)Oc3c(C)c(O)c4c(O)c(c(/C=N/N5CCN(C)CC5)c(O)c4c3C2=O)NC(=O)/C(C)=C\C=C\[C@H](C)[C@H](O)[C@@H](C)[C@@H](O)[C@@H](C)[C@H](OC(C)=O)[C@@H]1C` [Rifampin], the Toxicity (1 mg/kg bw PO, 5% DMSO) was “None” and the Toxicity (10 mg/kg bw PO, 5% DMSO) was “None”.

Where two headings read alike, the source gives them in different places.
